Tests used:
[1] = Antimicrobial uptake and release by contact lens, Acuvue
[2] = Antimicrobial uptake and release by contact lens, Purevision
[3] = cycle 1, 2 ml saline for 9 hours
[4] = cycle 1, 3.5 ml test solution for 15 hours
[5] = cycle 2, 2 ml saline for 9 hours
[6] = cycle 2, 3.5 ml test solution for 15 hours
[7] = cycle 3, 2 ml saline for 9 hours
[8] = cycle 3, 3.5 ml test solution for 15 hours

Compound: CCCCCCCCCCCCCC(=O)NCCCN(C)C [MAPD, myristamidopropyl dimethylamine]
- Release from lens [1, 3]: 2.5 µg
- Accumulation in Lens [1, 4]: 7.9 µg
- Release from lens [1, 5]: 3.9 µg
- Accumulation in Lens [1, 6]: 10.1 µg
- Release from lens [1, 7]: 3.6 µg
- Accumulation in Lens [1, 8]: 12.4 µg
- Release from lens [2, 3]: 0.2 µg
- Accumulation in Lens [2, 4]: 18.3 µg
- Release from lens [2, 5]: 0.2 µg
- Accumulation in Lens [2, 6]: 33.9 µg
- Release from lens [2, 7]: 0.6 µg
- Accumulation in Lens [2, 8]: 48.1 µg

Source: US7578996B2, “Cetylpyridinium chloride as an antimicrobial agent in ophthalmic compositions” (Advanced Medical Optics, Inc., priority 2004, dated 2009)
